Reference: PubChem BioAssay AID624099 (ICCB-Longwood, 2012)
Here is one part, drawn at random, of about 21,000 reagents. Of all reagents, 497 (2.4%) were called active. 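Higher z means weaker E2 silencing; only reporter increases were scored, and knock-downs that hurt cell survival may mask genuine repressor factors.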 A number with no mark means an inactive call. Reagents against one gene are numbered here.

Aim: 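Human genes that papillomavirus E2 requires to repress the HPV18 LCR promoter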 (primary screen)
Cell system: human C33A cervical carcinoma cells (HPV-negative) stably expressing BPV1 E2 and an HPV18 LCR luciferase reporter
Reagent: siRNA pool against human genes, 40 nM
Timing: 72 h
Read-out: 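Per-well luciferase luminescence, z-scored on each plate against the plate mean and SD with control wells left out, then averaged across three replicate plates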
Scale: mean z-score and z-score: higher = stronger reporter signal, weaker E2 silencing
Rule for the call: 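Mean z ≥ 2 together with z ≥ 2 in two or more of the three replicates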

target,reagent no.,mean z-score,"z-score, replicate A","z-score, replicate B","z-score, replicate C"
CETP,1,0.09,0.36,0.12,-0.21
ULK2,1,-0.95,-1,-1.04,-0.82
ZNF599,1,0.19,0.54,0.36,-0.34
XKR7,1,0.51,0.35,0.54,0.64
DDC,1,-0.25,-0.4,-0.13,-0.22
HES7,1,1.42,2.07,0.96,1.24
PFN1P3,1,2.25 (active),1.81,2.36,2.57
BHLHE41,1,0.72,0.92,0.71,0.54
FERD3L,1,0.38,0.75,0,0.23
LOC389841 (retired record),1,0.33,0.36,-0.05,0.69
SPATA24,1,-1.09,-1.05,-1.02,-1.18
WIZ,1,-0.5,-0.72,-0.63,-0.14
TMEM121B,1,0.61,0.65,0.88,0.31
DIXDC1,1,-0.79,-1.2,-0.78,-0.39
NIPAL2,1,-0.61,-0.66,-0.6,-0.59
RGS7,1,0.26,0.12,0.05,0.61
PNMA6A,1,1.96,1.67,1.86,2.35
RPRD1A,1,-0.39,-0.51,-0.27,-0.38
CDKN2C,1,1,1.75,0.34,0.91
TMEM243,1,-0.2,-0.49,-0.16,0.04
ALG6,1,-1.11,-1.03,-1.18,-1.13
ATXN8OS,1,-0.06,-0.35,-0.15,0.32
ARRB2,1,0.2,0.31,0,0.31
TARS1,1,-0.72,-0.61,-0.84,-0.71
CSTL1,1,1.02,0.63,0.9,1.54

Next part; the last 6 above are carried over.
target,reagent no.,mean z-score,"z-score, replicate A","z-score, replicate B","z-score, replicate C"
TMEM243,1,-0.2,-0.49,-0.16,0.04
ALG6,1,-1.11,-1.03,-1.18,-1.13
ATXN8OS,1,-0.06,-0.35,-0.15,0.32
ARRB2,1,0.2,0.31,0,0.31
TARS1,1,-0.72,-0.61,-0.84,-0.71
CSTL1,1,1.02,0.63,0.9,1.54
C19orf81,1,-1.03,-1.13,-0.79,-1.17
PRR34,1,0.64,0.48,0.22,1.21
POLR1H,1,0.33,0.53,0.29,0.16
CFAP73,1,0.72,0.91,1.11,0.15
PABPC3,1,-1.78,-1.76,-1.74,-1.85
PRPH2,1,1.06,0.71,1.03,1.45
H3C7,1,0.76,0.81,0.76,0.72
GLTPD2,1,1.21,1.1,1.47,1.05
ARL5B,1,0.66,0.36,1.07,0.54
THRB,1,1.04,1.13,0.88,1.12
THRB,2,-0.18,-0.6,-0.59,0.65
STAT5B,1,-0.3,-0.28,-0.36,-0.25
CFAP44,1,0.81,0.84,0.71,0.87
AMMECR1L,1,-1.83,-2.14,-1.69,-1.65
NDUFA7,1,-0.05,0.02,-0.09,-0.07
DRGX,1,-1.43,-1.46,-1.39,-1.45
CRTAC1,1,-0.6,-0.88,-0.71,-0.21
MUC21,1,0.82,0.63,1.11,0.72
SUSD5,1,0.13,0.14,0.16,0.07
TBC1D23,1,-1.65,-1.72,-1.48,-1.74
OOSP1,1,-0.01,-0.09,0,0.06
LOC401861 (retired record),1,-0.55,-0.78,-0.51,-0.37
ERFE,1,0.69,0.73,0.82,0.51
LRIF1,1,-0.44,-0.12,-0.81,-0.39
ZNF304,1,-0.06,0.28,0.27,-0.73
ENTPD6,1,-0.25,-0.26,-0.16,-0.33
PPP6R2,1,0.94,1.01,0.97,0.83
EIF2S3,1,-1.33,-1.06,-1.63,-1.29
OR13F1,1,0.55,0.64,0.24,0.78
SLC25A43,1,0.07,0.09,0.08,0.04
WWC3,1,0.81,0.6,0.82,1.01
TRMT61A,1,-0.25,-0.43,-0.25,-0.09
DACT2,1,2.03,1.56,1.58,2.96
CCDC107,1,-0.03,-0.09,0.05,-0.06
BACE2,1,-0.37,-0.55,-0.35,-0.2
LINC03066,1,-1.1,-0.87,-1.5,-0.91
SPSB1,1,0.68,1.08,0.45,0.51
GMPR2,1,0.42,0.2,0.7,0.35
ZCCHC9,1,-1.16,-1.2,-1.15,-1.13
TMEM191A,1,0.02,-0.1,0.2,-0.05
ESR2,1,-0.2,-0.39,-0.09,-0.12
CXCL11,1,2.17 (active),1.9,2.38,2.23
CLEC2A,1,0.2,0.62,-0.35,0.33
SLC4A1AP,1,-1.59,-1.61,-1.51,-1.66
PTGES2,1,-0.82,-0.58,-0.92,-0.98
LINC00700,1,-1.18,-1.18,-1.08,-1.27
MYOC,1,0.86,0.53,0.87,1.18
GPR179,1,1.94,1.62,2.33,1.88
